Measurements reported in US20090105467.
A negative result means that nothing was seen under these conditions. Tags and fusion partners may be left off the protein sequences shown. The exact form of at least one protein or probe is not confirmed.

Biological target: T1, RNase H (Escherichia coli) (UniProt P0A7Y4)
T1 sequence (looked up, limits assumed): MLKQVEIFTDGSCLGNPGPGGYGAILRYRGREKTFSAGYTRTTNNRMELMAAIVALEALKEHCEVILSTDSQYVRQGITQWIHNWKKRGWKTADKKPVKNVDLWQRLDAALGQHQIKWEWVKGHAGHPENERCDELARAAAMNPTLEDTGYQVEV
Test: enzyme reaction in vitro
Conditions: purified recombinant protein, label: 5'-32P on target RNA

| Sequence | activity on this sequence (target RNA degraded, Mn2+ or Mg2+, 25 C, DNA:RNA hybrid) | activity on this sequence (no RNase H degradation, variant of DNA 18-mer/HIV R region RNA) |
| --- | --- | --- |
| AGCTCCCAGGCTCAGATC [DNA 18-mer/HIV R region RNA] | active | – |
| AGCUCCCAGGCUCAGAUC / GAUCUGAGCCUGGGAGCU [3',5'-RNA 18-mer/HIV R region RNA] | – | not active |
